Measurements reported in PubChem BioAssay AID504761 (Drosophila RNAi Screening Center, 2011).
The deposit covers about 22,000 reagents; below is an unselected part of those that have a named target and a result. Over the whole deposit, 116 (0.52%) got an active call. 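Calls depend on retest data that are not deposited; infection was ranked per plate without normalising between plates; the unit of the infection score is not given.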 The raw values are shown without normalisation. A number with no mark means an inactive call. Names joined by + are all predicted targets of the reagent. Not stated in the record: the amount of reagent, the time to read-out.

Test: 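Insect host genes that dengue virus relies on to spread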 (primary screen)
Cells: D.Mel-2 cells from Drosophila
Reagent: long dsRNA against Drosophila genes
Conditions: infection with dengue virus type 2; dose and infection time not stated
Measurement: 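Cells stained for dengue envelope protein and imaged; percent of infected cells per well on duplicate plates, ranked by infection, with stained nuclei counted for cell number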
Scale: infection score: higher = more virus-infected cells; cell count: higher = more cells in the well
Hit rule: 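Very low infection ranking in both replicate wells (chance probability at most 0.065), then a retest showing infection dropped 1.5-fold or more at p below 0.05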
Meaning of the calls: active = confirmed: knock-down lowers infection; inactive = not picked or not confirmed

| Gene | dsRNA | infection score, replicate 1 | infection score, replicate 2 | cell count, replicate 1 | cell count, replicate 2 |
| --- | --- | --- | --- | --- | --- |
| Mob2 | DRSC09117 | 4.63 | 1.58 | 5766 | 5936 |
| Mob2 | DRSC09119 | 1.69 | 4.19 | 6160 | 5949 |
| Mob2 | DRSC23274 | 1.4 | 4.34 | 6159 | 6358 |
| Elp6 (Elongator complex protein 6) | DRSC16571 | 10.2 | 15.7 | 5894 | 5960 |
| Fbxl7 (F-box and leucine-rich repeat protein 7) | DRSC15553 | 2.1 | 6.48 | 6097 | 6424 |
| Fbxl7 (F-box and leucine-rich repeat protein 7) | DRSC25664 | 13.1 | 7.07 | 6752 | 6438 |
| cni (cornichon) | DRSC03512 | 1.7 | 16.7 | 705 | 5943 |
| Lip3 (Lipase 3) | DRSC16727 | 3.61 | 1.45 | 6241 | 6602 |
| Lip3 (Lipase 3) | DRSC29354 | – | 21.6 | 361 | 5502 |
| Dup99B (Ductus ejaculatorius peptide 99B) | DRSC22877 | 1.05 | 2.76 | 5984 | 6459 |
| Dup99B (Ductus ejaculatorius peptide 99B) | DRSC29633 | 21.6 | 30.5 | 5205 | 5149 |
| Fad2 | DRSC11165 | 0.52 | 1.41 | 4964 | 5179 |
| Fad2 | DRSC23579 | 2.13 | 4.46 | 6277 | 5893 |
| CG13114 | DRSC02212 | 12.8 | 3.45 | 1707 | 666 |
| Panx (Panoramix) | DRSC04563 | 4.85 | 2.06 | 6848 | 7088 |
| CheB42b (Chemosensory protein B 42b) | DRSC22878 | 1.35 | 12 | 5400 | 6054 |
| dare (defective in the avoidance of repellents) | DRSC07602 | 10.5 | 8.85 | 5720 | 6134 |
| GNBP2 (Gram-negative bacteria binding protein 2) | DRSC10404 | 1.52 | 15.2 | 6431 | 5698 |
| dpr12 (defective proboscis extension response 12) | DRSC04863 | 2.92 | 7.6 | 6240 | 6791 |
| dpr12 (defective proboscis extension response 12) | DRSC04892 | 4.19 | 8.15 | 6114 | 6796 |
| ca (claret) | DRSC15305 | 9.07 | 7.82 | 6284 | 6967 |
| ca (claret) | DRSC15306 | 17.3 | 14.6 | 4519 | 5171 |
| ca (claret) | DRSC16314 | 2.52 | 13.2 | 5746 | 3667 |
| Jon99Fi (Jonah 99Fi) | DRSC26496 | 3.42 | 1.46 | 5942 | 5953 |
| AstA (Allatostatin A) | DRSC14634 | 3.99 | – | 6541 | 406 |
| Tpi (Triose phosphate isomerase) | DRSC16888 | 16.4 | 27.5 | 6534 | 6531 |
| drl (derailed) | DRSC03523 | 41.9 | 13.5 | 6140 | 6778 |
| drl (derailed) | DRSC28564 | 3.39 | 8.41 | 2035 | 2853 |
| CG4716 | DRSC06884 | 13.2 | 8.49 | 6054 | 5819 |
| CG4716 | DRSC26611 | 5.45 | 6.21 | 6262 | 6067 |
| Hmr (Hybrid male rescue) | DRSC17740 | 1.2 | 2.85 | 6476 | 6458 |
| CG13488 | DRSC04133 | 1.64 | 3.1 | 6691 | 6797 |
| fh (frataxin) | DRSC18430 | 1.73 | 2.59 | 5895 | 6034 |
| CG15022 | DRSC08476 | 0.62 | 2.13 | 6098 | 5723 |
| CG15022 | DRSC25079 | 5.42 | 6.59 | 5995 | 5947 |
| BTBD9 (BTB (POZ) domain containing 9) | DRSC18148 | 5.12 | 3.49 | 6305 | 6506 |
| BTBD9 (BTB (POZ) domain containing 9) | DRSC22371 | 2.85 | 5.56 | 6318 | 6597 |
| CIAPIN1 (Cytokine induced apoptosis inhibitor 1) | DRSC03559 | 20.6 | 5.11 | 6106 | 5896 |
| CIAPIN1 (Cytokine induced apoptosis inhibitor 1) | DRSC24039 | 0.97 | 4.66 | 6192 | 5917 |
| CG14191 | DRSC19546 | 6.12 | 5.88 | 5983 | 4882 |
| CG14191 | DRSC25317 | 5.72 | 3.09 | 6587 | 6278 |
| esn (espinas) | DRSC05039 | 1.62 | 0.86 | 6125 | 5944 |
| esn (espinas) | DRSC07612 | 3.98 | 5.32 | 5856 | 6186 |
| CG5347 | DRSC19942 | 38.3 | 25 | 4545 | 3109 |
| out (outsiders) | DRSC19347 | 8.68 | 11 | 6484 | 6752 |
| out (outsiders) | DRSC28913 | 9.41 | 16.8 | 5631 | 6098 |
| atilla | DRSC02971 | 8.98 | 8.28 | 5847 | 5736 |
| atilla | DRSC27408 | 31.4 | 6.29 | 6017 | 6424 |
| Nubpl (NUBP iron-sulfur cluster assembly factor, mitochondrial) | DRSC03725 | 11.3 | 17.5 | 6582 | 6477 |
| CG14632 (retired record) | DRSC17942 | 3.28 | 0.21 | 6340 | 484 |
| CG14632 (retired record) | DRSC25845 | 1.57 | 1.62 | 6386 | 6229 |
| Vha16-4 + CG15614 | DRSC07321 | 7.08 | 11.4 | 6457 | 6396 |
| CG10748 | DRSC09797 | 1.06 | 1.27 | 5759 | 6298 |
| Srpk79D (Serine-arginine protein kinase at 79D) | DRSC11668 | 4.5 | 10.5 | 6911 | 6159 |
| Srpk79D (Serine-arginine protein kinase at 79D) | DRSC11856 | 2.65 | 10.5 | 6346 | 6688 |
| Srpk79D (Serine-arginine protein kinase at 79D) | DRSC29962 | – | 11.4 | – | 3157 |
| cher (cheerio) | DRSC16924 | 6.91 | 10.4 | 6917 | 6718 |
| cher (cheerio) | DRSC27625 | 2.85 | 7.32 | 6922 | 6461 |

A run of entries taken from the entries so far, for reference:
| Gene | dsRNA | infection score, replicate 1 | infection score, replicate 2 | cell count, replicate 1 | cell count, replicate 2 |
| --- | --- | --- | --- | --- | --- |
| Panx (Panoramix) | DRSC04563 | 4.85 | 2.06 | 6848 | 7088 |
| CheB42b (Chemosensory protein B 42b) | DRSC22878 | 1.35 | 12 | 5400 | 6054 |
| dare (defective in the avoidance of repellents) | DRSC07602 | 10.5 | 8.85 | 5720 | 6134 |
| GNBP2 (Gram-negative bacteria binding protein 2) | DRSC10404 | 1.52 | 15.2 | 6431 | 5698 |
| dpr12 (defective proboscis extension response 12) | DRSC04863 | 2.92 | 7.6 | 6240 | 6791 |
| dpr12 (defective proboscis extension response 12) | DRSC04892 | 4.19 | 8.15 | 6114 | 6796 |
| ca (claret) | DRSC15305 | 9.07 | 7.82 | 6284 | 6967 |
| ca (claret) | DRSC15306 | 17.3 | 14.6 | 4519 | 5171 |
